In doi:10.64898/2025.12.30.696991 (bioRxiv, 2026):

System: proteins of S. Typhimurium-infected RAW 264.7 cell lysate
Assay: Proteomic analysis via affinity capture (compound-conjugated agarose beads, LC-MS/MS)
Parameters: species or system Mus musculus
Settings: Log2 fold-change >2 and p < 0.05
[1] = experiment 1 (341: the one experiment)

Row | SMILES | proteins enriched on compound-beads compared to control beads [1] | proteins enriched on compound-beads compared to control beads (experiment 2) [proteins]
1 | NCC(=O)Nc1ccc(-n2nc(C(F)(F)F)cc2C2CCCCC2)cc1 [Compound 341] | 316 proteins | –
2 | FC(F)(F)c1cc(C2CCCCC2)n(-c2ccc(OC3CCNCC3)cc2)n1 [Compound 370] | 1,254 proteins | 354
